From article PMC9460261, “Need for a Standardized Translational Drug Development Platform: Lessons Learned from the Repurposing of Drugs for COVID-19” (Microorganisms, 2022)

System: SARS-CoV-2 in Vero cells

ivermectin was tested, and the “Selectivity Index (Vero cells), With Pgp pump inhibitor” value was 5.4 and the “Selectivity Index (Vero cells), Without Pgp pump inhibitor” value was 2.6.
